The record followed here is ChEMBL document CHEMBL5370591, “A Potent and Narrow-Spectrum Antibacterial against Clostridioides difficile Infection” (J Med Chem, 2023).

A short description of this series: Selectivity ratio of IC50 for human THP-1 cells to MIC for Clostridium difficile ATCC 43255.

With `Oc1ccc(-c2nc(-c3ccc(OC4CCCC4)cc3)no2)cc1`, the Ratio came to 9.
